Data as given in the NIST ThermoML archive (doi:10.1021/je034263v).

Tests used:
[1] = refractive index (Na D-line) (dimensionless); conditions: 101.33 kPa, Liquid, Standard Abbe refractometry
[2] = Liquid; for mass density / viscosity: 101.33 kPa

ClP(Cl)c1ccccc1 [dichlorophenylphosphine]
Conditions	refractive index	vapor or sublimation pressure [kPa]
[1], 293.15 K	1.595	–
[2], 349.26 K	–	0.614
[2], 352.16 K	–	0.719
[2], 355.14 K	–	0.842
[2], 357.45 K	–	0.949
[2], 360.35 K	–	1.099
[2], 363.46 K	–	1.282
[2], 366.4 K	–	1.476
[2], 369.51 K	–	1.708
[2], 374.35 K	–	2.126
[2], 377.89 K	–	2.483
[2], 380.29 K	–	2.751
[2], 383.46 K	–	3.141
[2], 388.15 K	–	3.891
[2], 392.55 K	–	4.466
[2], 395.55 K	–	5.321
[2], 398.35 K	–	5.853
[2], 402.05 K	–	6.279
[2], 404.85 K	–	6.866
[2], 408.49 K	–	7.653
[2], 412.55 K	–	9.346
[2], 414.04 K	–	9.813
[2], 415.05 K	–	10.19
[2], 418.03 K	–	11.39
[2], 420.25 K	–	12.28
[2], 424.25 K	–	12.97
[2], 426.06 K	–	13.91

O=P(Cl)(Cl)c1ccccc1 [phenylphosphonic dichloride]
Conditions	mass density [kg/m3]	refractive index	vapor or sublimation pressure [kPa]	viscosity [mPa·s]
[1], 298.15 K	–	1.5586	–	–
[2], 293.17 K	1400	–	–	–
[2], 293.21 K	–	–	–	4.687
[2], 299.19 K	1394.9	–	–	–
[2], 299.58 K	–	–	–	4.143
[2], 303.25 K	1390.8	–	–	–
[2], 303.77 K	–	–	–	3.674
[2], 307.97 K	–	–	–	3.331
[2], 309.05 K	1384.8	–	–	–
[2], 312.95 K	–	–	–	2.979
[2], 313.75 K	1380.1	–	–	–
[2], 318.95 K	–	–	–	2.642
[2], 319.25 K	1373.9	–	–	–
[2], 322.75 K	–	–	–	2.451
[2], 323.31 K	1369.7	–	–	–
[2], 327.85 K	–	–	–	2.247
[2], 329.4 K	1364.3	–	–	–
[2], 332.35 K	–	–	–	2.046
[2], 334.75 K	1358.7	–	–	–
[2], 338.25 K	–	–	–	1.873
[2], 338.85 K	1354.3	–	–	–
[2], 341.85 K	–	–	–	1.77
[2], 342.85 K	1350.4	–	–	–
[2], 377.15 K	–	–	0.529	–
[2], 382.65 K	–	–	0.646	–
[2], 387.96 K	–	–	0.813	–
[2], 393.09 K	–	–	1.031	–
[2], 397.4 K	–	–	1.277	–
[2], 402.6 K	–	–	1.535	–
[2], 410.21 K	–	–	2.011	–
[2], 413.57 K	–	–	2.266	–
[2], 415.95 K	–	–	2.693	–
[2], 419.63 K	–	–	3.136	–
[2], 424.32 K	–	–	3.788	–
[2], 428.54 K	–	–	4.226	–
[2], 431.35 K	–	–	5	–
[2], 435.95 K	–	–	5.666	–
[2], 439.85 K	–	–	6.506	–
[2], 442.85 K	–	–	7.533	–
[2], 446.35 K	–	–	7.826	–
[2], 448.84 K	–	–	8.893	–
[2], 456.05 K	–	–	10.53	–
[2], 457.65 K	–	–	11.53	–
